Results of unrelated studies side by side (data: NIAID ChemDB).

Shared fields: whole-cell or culture tests; organism: HIV-1; cells: CEM; endpoint: EC50

Blank or dashed fields: not listed here.

SMILES	strain or isolate	changes	method	value
CCOCn1c(Sc2cc(C)cc(C)c2)c(C(C)C)c(=O)[nH]c1=S	IIIB	-	microscopy	0.0008 µM
Cc1cn([C@H]2C[C@H](N=[N+]=[N-])[C@@H](CO)O2)c(=O)[nH]c1=O	IIIB/LAI	-	antigen	0.002 µM
CCOCn1c(Cc2ccccc2)c(CC)c(=O)[nH]c1=O	IIIB BHAP(RT-L100I)	RT-L100I	syncytia	0.09 µg/mL
CCC(C)C(NC(=O)C1CCCN1CC(O)[C@H](Cc1ccccc1)NC(=O)C(CC(N)=O)NC(=O)OCc1ccccc1)C(=O)NC(Cc1ccccc1)C(=O)NC	IIIB	-	cytopathic effect / MTT	0.39 µM
Nc1ncnc2c1ncn2CCOCP(=O)(O)O	IIIB TIBO R82913 STR-B22 (RT L100I Y188H)	RT-L100I Y188H	syncytia	10 µM
O=C(OC[C@@H]1OC(=O)c2ccccc21)c1ccccc1	-	-	-	>10 µM
CCn1cc(C(=O)O)c(=O)c2cc(F)c(N3CCN(CC(=O)OC[C@H]4O[C@@H](n5cc(C)c(=O)[nH]c5=O)C[C@@H]4N=[N+]=[N-])CC3)cc21	-	-	cytopathic effect / XTT	0.523 µM
Nc1nc(NC2CC2)c2ncn([C@H]3C=C[C@@H](COP4(=O)OCc5ccccc5O4)C3)c2n1	IIIB	-	syncytia	0.95 µM
NC(=O)NO	IIIB	-	p24	>100 µM
CCc1cc(NCc2nc3c(Cl)ccc(Cl)c3o2)c(=O)[nH]c1C	IIIB	-	syncytia	0.007 µg/mL
CC(C)(C)NC(=O)[C@@H]1C[C@H](F)CN1C(=O)[C@@H](O)[C@H](Cc1ccccc1)NC(=O)[C@H](CC(N)=O)NC(=O)OCc1ccccc1	IIIB	-	p24	<5 µM
Cc1cc(S(=O)(=O)Nc2n[nH]c(Nc3ccccc3)n2)c(S)cc1Cl	RF	-	cytopathic effect / XTT	74.2 µM
CCOCn1c(Cc2ccccc2)c(CC)c(=O)[nH]c1=O	IIIB	-	syncytia	0.0026 ± 0.002 µg/mL
Nc1nc2c(ncn2[C@H]2CC[C@@H](CO)O2)c(=O)[nH]1	IIIB	-	-	1.3 µM
Nc1nc2c(ncn2[C@H]2C=C[C@@H](CO)C2)c(=O)[nH]1	IIIB	-	syncytia	0.15 µM
O=c1[nH]cnc2c1ncn2[C@H]1CC[C@@H](CO)O1	IIIB-Nevirapine(0.1)(RT-Y181C)	RT-Y181C	syncytia	7.5 µM
O=S(=O)(Nc1nnc2n1-c1ccccc1CC2)c1ccc(F)cc1S	RF	-	cytopathic effect / XTT	>109.3 µM
Nc1nc2c(ncn2COCCO)c(=O)[nH]1	IIIB	-	syncytia	>250 µM
CC(C)NC(=O)c1cnnn1C1OC(CO[Si](C)(C)C(C)(C)C)C2(OS(=O)(=O)C=C2N)C1O[Si](C)(C)C(C)(C)C	IIIB	-	cytopathic effect	0.18 µM
Cc1cn([C@@H]2O[C@H](CO[Si](C)(C)C(C)(C)C)C3(OS(=O)(=O)C=C3N)[C@H]2O[Si](C)(C)C(C)(C)C)c(=O)n(C)c1=O	IIIB NEV(RT-V106A)	RT-V106A	syncytia	2.5 µg/mL
Nc1nc(NC2CC2)c2ncn([C@H]3C=C[C@@H](COP4(=O)OCc5cc(Cl)ccc5O4)C3)c2n1	IIIB	-	syncytia	3.5 µM
O=c1[nH]cnc2c1ncn2[C@H]1CC[C@@H](CO)O1	IIIB TSAO-T(RT-E138K)	RT-E138K	syncytia	10 µM
Nc1ccn([C@H]2CC[C@@H](CO)O2)c(=O)n1	IIIB-BHAP)(0.1)(RT-L100I	RT-L100I	syncytia	0.02 µM
O=c1[nH]cnc2c1ncn2[C@H]1CC[C@@H](CO)O1	IIIB	-	-	8.3 µM
Cc1ccnc2c1NC(=O)c1cccnc1N2C1CC1	IIIB	-	microscopy	0.032 µM
CC(=O)Oc1cc(S(=O)(=O)Nc2n[nH]c(Nc3ccc(C)cc3)n2)c(S)cc1Cl	RF	-	cytopathic effect / XTT	139 µM
Cc1cn([C@H]2CC[C@@H](CO)O2)c(=O)[nH]c1=O	BRU	-	p24	29 µM
Cc1cc2nc3nc(N)nc(NS(=O)(=O)c4cc(C)c(Cl)cc4S)n3c2cc1C	RF	-	cytopathic effect / XTT	58.5 µM
Cc1ccnc2c1NC(=O)c1cccnc1N2C1CC1	IIIB-TSAO-m3T(10)(RT-Y181C)	RT-Y181C	syncytia	0.02 µg/mL
Nc1nc2c(ncn2C[C@@H](OCP(=O)(O)O)C2CC2)c(=O)[nH]1	RF	-	XTT	>100 µM
CC(C)(C)[Si](C)(C)OCC1OC(n2nncc2C(=O)NC2CCC2)C(O[Si](C)(C)C(C)(C)C)C12OS(=O)(=O)C=C2N	IIIB	-	cytopathic effect	0.21 µM
Cc1cn([C@H]2C[C@H](N=[N+]=[N-])[C@@H](COP(=O)(Nc3cc(C(=O)Nc4cc(C(=O)Nc5cc(C(=O)NCCC#N)n(C)c5)n(C)c4)n(C)c3)OC3CCCCC3)O2)c(=O)[nH]c1=O	-	-	syncytia	0.011 µM
Cc1cn([C@@H]2O[C@H](CO[Si](C)(C)C(C)(C)C)C3(OS(=O)(=O)C=C3N)[C@H]2O[Si](C)(C)C(C)(C)C)c(=O)n(C)c1=O	IIIB TIBO R82913 STR-B02 (RT L100I E138K)	RT-L100I E138K	syncytia	>50 µM
CN1CCC(C2Sc3ccccc3C(=O)N3CCCC23)CC1	-	-	cytopathic effect / XTT	>125 µM
Nc1ncnc2c1ncn2CC(CF)OCP(=O)(O)O	IIIB TIBO R82913 STR-2 (RT K103N)	RT-K103N	syncytia	2 µM
Cc1cn([C@@H]2O[C@H](CO)C[C@@H]2F)c(=O)[nH]c1=O	-	-	p24	>100 µM
CC(C)(C)NC(=O)[C@@H]1CCCN1C(=O)[C@@H](O)[C@H](Cc1ccccc1)NC(=O)[C@H](CC(N)=O)NC(=O)c1cnc2ccccc2n1	IIIB	-	p24	<0.5 µM
Cc1cn([C@H]2C[C@H](N=[N+]=[N-])[C@@H](COP(=O)(Nc3cc(C(=O)NCCC(=N)N)n(C)c3)OC3CCCCC3)O2)c(=O)[nH]c1=O	-	-	syncytia	0.152 µM
CC(C)CN(C[C@@H](O)[C@H](Cc1ccccc1)NC(=O)[C@H](CC(N)=O)NC(=O)c1ccc2ccccc2n1)C(=O)NC(C)(C)C	-	-	RT activity	<0.08 µg/mL
CC(C)=CCN1Cc2cccc3[nH]c(=S)n(c23)C[C@@H]1C	IIIB TIBO R82913 STR-B22 (RT L100I Y188H)	RT-L100I Y188H	syncytia	≥5 µM
O=c1[nH]cnc2c1ncn2[C@H]1CC[C@@H](CO)O1	IIIB	-	syncytia	4.6 ± 2.6 µM
Cc1cc(S(=O)(=O)Nc2nc(N)nc(N(C)C)n2)c(SCC(=O)O)cc1Cl	RF	-	cytopathic effect / XTT	>200 µM
Fc1ccc(Cl)c(C2OCc3nc4ccccc4n32)c1	IIIB	-	cytopathic effect	3.8 µM
Fc1cccc(F)c1C1OCc2nc3ccccc3n21	TIBO R82150-resistant (RT L100I)	RT-L100I	cytopathic effect / MTT	6.58 µM
Cc1cn([C@@H]2O[C@H](CO[Si](C)(C)C(C)(C)C)[C@@]3(OS(=O)(=O)C=C3N)[C@H]2O[Si](C)(C)C(C)(C)C)c(=O)[nH]c1=O	IIIB	-	syncytia	0.03 ± 0.005 µg/mL
CC(C)(C)NC(=O)[C@@H]1C[C@H](Cl)CN1C(=O)[C@@H](O)[C@H](Cc1ccccc1)NC(=O)[C@H](CC(N)=O)NC(=O)c1noc2ccccc12	IIIB	-	p24	<0.16 µM
CC1CNC(=O)c2ccccc2SSc2ccccc2C(=O)N1	IIIB	-	-	1.8–6.5 µg/mL
Cc1cn([C@H]2C=C[C@@H](COP(=O)(Nc3cc(C(=O)Nc4cc(C(=O)NCCC(=N)N)n(C)c4)n(C)c3)OC(C)C)O2)c(=O)[nH]c1=O	-	-	syncytia	1.89 µM
Cc1ccnc2c1NC(=O)c1cccnc1N2C1CC1	IIIB	-	syncytia	0.032 ± 0.029 µg/mL
Cc1cn([C@H]2C[C@H](N=[N+]=[N-])[C@@H](CO)O2)c(=O)[nH]c1=O	IIIB-Pyridinone(0.1)(RT-V179N	RT-V179N	syncytia	0.006 µM
CC(C)=CCN1Cc2cc(Cl)cc3[nH]c(=S)n(c23)C[C@@H]1C	IIIB	-	syncytia	0.015 ± 0.009 µg/mL
CC(=N)CCNC(=O)c1cc(NC(=O)c2cc(NC(=O)c3cc(NP(=O)(OC[C@@H]4C=C[C@H](n5cc(C)c(=O)[nH]c5=O)O4)OC4CCCCC4)cn3C)cn2C)cn1C	-	-	syncytia	0.43 µM
Cc1cn([C@@H]2O[C@H](CO[Si](C)(C)C(C)(C)C)C3(OS(=O)(=O)C=C3N)[C@H]2O[Si](C)(C)C(C)(C)C)c(=O)n(C)c1=O	IIIB	-	syncytia	0.03 ± 0.005 µg/mL
COc1ccc2c(c1)COP(=O)(OC[C@@H]1C=C[C@H](n3cnc4c(NC5CC5)nc(N)nc43)C1)O2	IIIB	-	syncytia	3.5 µM
CCC(C)C(NC(=O)C1CCCN1CC(O)[C@H](Cc1ccccc1)NC(=O)C(CC(N)=O)NC(=O)c1ccc2ccccc2n1)C(=O)NC(Cc1ccccc1)C(=O)NC	IIIB	-	cytopathic effect / MTT	0.16 µM
C[C@H](Cn1cnc2c(N)ncnc21)OCP(=O)(O)O	IIIB	-	-	5 µM
Nc1ccn([C@H]2CC[C@@H](CO)O2)c(=O)n1	IIIB	-	-	0.05 µM
CN(C)C(=O)c1cnnn1[C@@H]1O[C@H](CO[Si](C)(C)C(C)(C)C)C2(OS(=O)(=O)C=C2N)[C@H]1O[Si](C)(C)C(C)(C)C	IIIB	-	cytopathic effect	0.12 µM
CCCCCCCCCCCCCC(=O)OC[C@@H](COP(=O)(O)OC[C@@H]1CC[C@H](n2cc(C)c(=O)[nH]c2=O)O1)OC(=O)CCCCCCCCCCCCC	BRU	-	p24	14 µM
Nc1ncnc2c1ncn2CCOCP(=O)(O)O	HE	-	-	30 µM
CC(C)(C)[Si](C)(C)OCC1OC(n2nncc2C(=O)N2CCC2)C(O[Si](C)(C)C(C)(C)C)C12OS(=O)(=O)C=C2N	IIIB	-	cytopathic effect	0.08 µM
Cc1cn([C@H]2C[C@H](N=[N+]=[N-])[C@@H](CO)O2)c(=O)[nH]c1=O	IIIB	-	cytopathic effect / MTT	0.068 µM
Nc1ccn([C@H]2CC[C@@H](CO)O2)c(=O)n1	-	-	cytopathic effect / XTT	0.11 µg/mL
CCOCn1c(Sc2ccccc2)c(CC)c(=O)[nH]c1=O	IIIB	-	syncytia	0.005 ± 0.002 µg/mL
Nc1ccn([C@@H]2O[C@H](CO)C=C2F)c(=O)n1	-	-	p24	15–48 µM
Nc1ccn([C@H]2CC[C@@H](CO)O2)c(=O)n1	IIIB TIBO R82913 STR-B22 (RT L100I Y188H)	RT-L100I Y188H	syncytia	0.014 µM
Cc1cc(C(F)(F)F)cc(-n2nc(NS(=O)(=O)c3cc(C)c(Cl)cc3S)nc2N)n1	RF	-	cytopathic effect / XTT	>149 µM
CC(C)=CCN1Cc2cccc3[nH]c(=S)n(c23)C[C@@H]1C	IIIB	-	syncytia	0.026 ± 0.006 µg/mL
c1ccc(C2OCc3nc4ccccc4n32)cc1	IIIB	-	cytopathic effect / MTT	8.46 µM
Cc1c(Sc2ccccc2)n(COCCO)c(=O)[nH]c1=O	IIIB HEPT-resistant (RT Y188H)	RT-Y188H	syncytia	≥250 µg/mL
CCn1cnc2ncn([C@@H]3O[C@H](CO[Si](C)(C)C(C)(C)C)C4(OS(=O)(=O)C=C4N)[C@H]3O[Si](C)(C)C(C)(C)C)c2c1=O	IIIB	-	syncytia	0.12 µg/mL
CCn1c(=O)c(C)cn([C@@H]2O[C@H](CO[Si](C)(C)C(C)(C)C)C3(OS(=O)(=O)C=C3N)[C@H]2O[Si](C)(C)C(C)(C)C)c1=O	IIIB TIBO R82913-resistant (RT K103N)	RT-K103N	syncytia	0.23 µg/mL
Cc1cc(S(=O)(=O)NC2=NCCCN2)c(S)cc1Cl	RF	-	cytopathic effect / XTT	16.1 µM
[N-]=[N+]=NCC[C@@H](Cn1cnc2c(=O)[nH]c(N)nc21)OCP(=O)(O)O	BRU	-	XTT	>100 µM
Cc1ccc(Nc2nc(NS(=O)(=O)c3cc(C)c(Cl)cc3S)n(C)n2)cc1	RF	-	cytopathic effect / XTT	>100 µM
CC(C)Nc1cccnc1N1CCN(C(=O)c2cc3cc(NS(C)(=O)=O)ccc3[nH]2)CC1	IIIB	-	-	0.018 µM

The last 8 rows once more:

{"SMILES": "c1ccc(C2OCc3nc4ccccc4n32)cc1", "strain or isolate": "IIIB", "method": "cytopathic effect / MTT", "value": "8.46 µM"}
{"SMILES": "Cc1c(Sc2ccccc2)n(COCCO)c(=O)[nH]c1=O", "strain or isolate": "IIIB HEPT-resistant (RT Y188H)", "changes": "RT-Y188H", "method": "syncytia", "value": "≥250 µg/mL"}
{"SMILES": "CCn1cnc2ncn([C@@H]3O[C@H](CO[Si](C)(C)C(C)(C)C)C4(OS(=O)(=O)C=C4N)[C@H]3O[Si](C)(C)C(C)(C)C)c2c1=O", "strain or isolate": "IIIB", "method": "syncytia", "value": "0.12 µg/mL"}
{"SMILES": "CCn1c(=O)c(C)cn([C@@H]2O[C@H](CO[Si](C)(C)C(C)(C)C)C3(OS(=O)(=O)C=C3N)[C@H]2O[Si](C)(C)C(C)(C)C)c1=O", "strain or isolate": "IIIB TIBO R82913-resistant (RT K103N)", "changes": "RT-K103N", "method": "syncytia", "value": "0.23 µg/mL"}
{"SMILES": "Cc1cc(S(=O)(=O)NC2=NCCCN2)c(S)cc1Cl", "strain or isolate": "RF", "method": "cytopathic effect / XTT", "value": "16.1 µM"}
{"SMILES": "[N-]=[N+]=NCC[C@@H](Cn1cnc2c(=O)[nH]c(N)nc21)OCP(=O)(O)O", "strain or isolate": "BRU", "method": "XTT", "value": ">100 µM"}
{"SMILES": "Cc1ccc(Nc2nc(NS(=O)(=O)c3cc(C)c(Cl)cc3S)n(C)n2)cc1", "strain or isolate": "RF", "method": "cytopathic effect / XTT", "value": ">100 µM"}
{"SMILES": "CC(C)Nc1cccnc1N1CCN(C(=O)c2cc3cc(NS(C)(=O)=O)ccc3[nH]2)CC1", "strain or isolate": "IIIB", "value": "0.018 µM"}

Two numbers with a dash give a range or band. ECn is the concentration giving n% inhibition of infection, replication or growth. Rows are shuffled and stem from different studies.